Experimental data published in PMC7232359, “Mutation of Hydrophobic Residues in the C-Terminal Domain of the Marburg Virus Matrix Protein VP40 Disrupts Trafficking to the Plasma Membrane” (2020).

System: Marburg virus VP40 L201A mutant, 6x-His tagged, Marburg virus, P35260 1-303

Marburg virus VP40 L201A mutant, 6x-His tagged
stoichiometry N: 2
